Results of unrelated studies side by side (data: NIAID ChemDB).

Shared fields: host cell toxicity; cells: H9; measure: CC50

Rows are shuffled and stem from different studies.

C[C@]12CCC3C(CC[C@@]45O[C@@H]4C(=O)C(C(N)=O)C[C@]35C)C1CC[C@@H]2O ; value: 7.8 µM
CC1(C)CC[C@]2(C(=O)O)CC[C@]3(COC(=O)/C=C/c4ccc(O)c(O)c4)C(=CCC4[C@@]5(C)CC[C@H](OC(=O)/C=C/c6ccc(O)cc6)C(C)(C)C5CC[C@]43C)[C@@H]2C1 ; value: >25 µg/mL
Nc1nc2c(ncn2[C@H]2C=C[C@@H](CO)C2)c(=O)o1 ; value: >500 µg/mL
C[C@@]12CCCC[C@]13O[C@@H]3C(=O)C(C(=O)Nc1ccccc1)C2 ; value: 7.98 µM
O=c1c(O[C@@H]2O[C@H](CO)[C@@H](O)[C@H](O)[C@H]2O)c(-c2ccc(O)cc2)oc2cc(O)cc(O)c12 ; value: >200 µg/mL
CC(C)=CCC/C(C)=C/C[N+]1(C/C=C(\C)CCC=C(C)C)CCc2cc(O)c(O)cc2[C@H]1Cc1ccc(O)c(O)c1 ; value: 18.02 µg/mL
COc1cc(/C=C/C(=O)NCCc2ccc(O)cc2)ccc1O ; value: >25 µg/mL
Cc1cn([C@H]2C[C@H](N=[N+]=[N-])[C@@H](CO)O2)c(=O)[nH]c1=O ; value: 1872 µM
Cc1cn([C@H]2C[C@H](N=[N+]=[N-])[C@@H](CO)O2)c(=O)[nH]c1=O ; value: >100 µM
O=C(O)P(=O)(O)O ; value: >1000 µM
C[C@]12CCCCC13OC3C(=O)C(C(N)=O)C2 ; value: 26.78 µM
Nc1nc2c(ncn2[C@@H]2O[C@H](CO)[C@@H](O)[C@H]2O)c(=O)o1 ; value: >500 µg/mL
Nc1ncnc2c1ncn2[C@@H]1C[C@H](CO)[C@@H](F)C1 ; value: 50 µg/mL
Nc1ccn([C@@H]2O[C@H](CO)[C@@H](O)[C@@H]2O)c(=O)n1 ; value: 0.1 µM
CC(=O)O[C@H]1CCC2C3CC[C@@]45O[C@@H]4C(=O)C(C(N)=O)C[C@]5(C)C3CC[C@@]21C ; value: 3.84 µM
COC(=O)C1C[C@]2(C)C3CC[C@@]4(C)C(CC[C@@H]4O)C3CC[C@]23O[C@@H]3C1=O ; value: 10.8 µM
CC(C)=CCC/C(C)=C/C[N+]1(C/C=C(\C)CCC=C(C)C)CCc2cc(O)c(O)cc2[C@H]1C ; value: 10.68 µg/mL
Nc1nc(N)c2ncn([C@@H]3O[C@H](CO)[C@@H](F)[C@H]3O)c2n1 ; value: 60 µg/mL
CC(=O)O[C@H]1CCC2C3CC[C@@]45O[C@@H]4C(=O)C(C(N)=O)C[C@]5(C)C3CC[C@@]21C ; value: 3.84 µM
COc1cc(/C=C/C(=O)OCCCc2cc(OC)c3c(c2)[C@@H](COC(=O)/C=C/c2ccc(O)c(OC)c2)[C@H](c2ccc(O)c(OC)c2)O3)ccc1O ; value: 19.43 µg/mL
Nc1nc2c(ncn2[C@H]2CC[C@@H](CO)O2)c(=O)o1 ; value: >500 µg/mL
O=C(/C=C/c1ccc(O)cc1)OC[C@H]1O[C@@H](Oc2c(-c3ccc(O)cc3)oc3cc(O)cc(O)c3c2=O)[C@H](O)[C@@H](O)[C@@H]1O ; value: 80 µg/mL
CCCCCCCCCCCCCCCC(=O)Nc1ncnc2c1ncn2[C@@H]1O[C@H](CO)[C@@H](F)[C@H]1O ; value: 33 µg/mL
Cc1cc(=O)oc2c3c(ccc12)OC[C@H](OC(=O)C12CCC(C)(C(=O)O1)C2(C)C)[C@@H]3OC(=O)C12CCC(C)(C(=O)O1)C2(C)C ; value: >41.1 µM
C=C(C)OC(=O)N1c2cc(Cl)ccc2NC(=S)C1(C)C ; value: >290 µM
CC1NCCc2cc(O)c(O)cc21 ; value: >25 µg/mL
CCCC1(C)Oc2ccc3c(C)cc(=O)oc3c2[C@@H](OC(=O)C23CCC(C)(C(=O)O2)C3(C)C)[C@H]1OC(=O)C12CCC(C)(C(=O)O1)C2(C)C ; value: >37.6 µM
Cc1cn([C@H]2C[C@H](N=[N+]=[N-])[C@@H](CO)O2)c(=O)[nH]c1=O ; value: 30 µM
O=c1[nH]cnc2c1ncn2[C@H]1CC[C@@H](CO)O1 ; value: 1450 µM
O=C1OC(C2OC(=O)c3cc(O)c(O)c(O)c3-c3c(O)c(O)c4oc(=O)c5c(c(O)c(O)c6oc(=O)c3c4c65)-c3c(cc(O)c(O)c3O)C(=O)OCC2O)C2OC(=O)c3c(c(O)c(O)c(O)c3C2O)-c2c1cc(O)c(O)c2O ; value: >5 µg/mL
Cc1cn([C@H]2C[C@H](N=[N+]=[N-])[C@@H](CO)O2)c(=O)[nH]c1=O ; value: 500 µg/mL
CC1c2cc(O)c(O)cc2CC[N+]1(C)C ; value: >25 µg/mL
Cc1cn([C@H]2C=C[C@@H](CO)O2)c(=O)[nH]c1=O ; value: 75.2 µM
C[C@]12CCC3C(CC[C@@]45O[C@@H]4C(=O)C(S(C)(=O)=O)C[C@]35C)C1CC[C@@H]2O ; value: 5.46 µM
Cc1cn([C@H]2C[C@H](N=[N+]=[N-])[C@@H](CO)O2)c(=O)[nH]c1=O ; value: >500 µg/mL
Cc1ccnc2c1NC(=O)c1cccnc1N2C1CC1 ; value: >290 µM
COC(=O)C1C[C@]2(C)C3CC[C@@]4(C)C(CC[C@@H]4OC(C)=O)C3CC[C@]23O[C@@H]3C1=O ; value: 4.34 µM
CC1c2cc(O)c(O)cc2CCN1C ; value: >25 µg/mL
COc1cc(/C=C/C(=O)OCCCc2ccc(O[C@@H](COC(=O)/C=C/c3ccc(O)c(OC)c3)[C@@H](O)c3ccc(O)c(OC)c3)c(O)c2)ccc1O ; value: 16.64 µg/mL
[N-]=[N+]=N[C@H]1C[C@H](n2cc(I)c(=O)[nH]c2=O)O[C@@H]1CO ; value: 197 µM
Cc1cn([C@H]2C[C@H](N=[N+]=[N-])[C@@H](CO)O2)c(=O)[nH]c1=O ; value: >1000 µM
Cc1cn([C@H]2C[C@H](N=[N+]=[N-])[C@@H](CO)O2)c(=O)[nH]c1=O.O=C(O)P(=O)(O)O ; value: >800 µM
Nc1nc(N)c2ncn(C[C@@H](CO)OCP(=O)(O)O)c2n1 ; value: >100 µM

A second listing of 3 rows from above:

structure	value
O=c1[nH]cnc2c1ncn2[C@H]1CC[C@@H](CO)O1	1450 µM
Cc1ccnc2c1NC(=O)c1cccnc1N2C1CC1	>290 µM
CC1c2cc(O)c(O)cc2CC[N+]1(C)C	>25 µg/mL

CCn is the concentration with n% toxicity to the cells.